Compound potency records, mixed from different reports. Data source: NIAID ChemDB in PubChem.

Common to all: growth or infection tests; agent: Human cytomegalovirus

An empty or dashed field is not shown.

smiles	strain	method	measure	cell line	dose	result
Cn1cc(C(=O)NCc2ccc(Cl)cc2)c(=O)c2cc(CN3CCOCC3)ccc21	HA	plaque count	inhibition	HFF	10.5 µM	90%
OC[C@H]1O[C@@H](n2c(Br)nc3cc(Cl)c(Cl)cc32)[C@H](O)[C@@H]1O	R56	virus yield	EC95			3 µM
Cc1ccc2ncnc(Nc3ccc(Cl)c(Cl)c3)c2c1	AD169-GFP	plaque count	inhibition	HFF	10 µM	100%
CC(C)Nc1nc2cc(Cl)c(Cl)cc2n1[C@H]1O[C@@H](CO)[C@H](O)[C@@H]1O	2916RAE (LEU397ARG)	hybridisation	EC50	MRC-5		2.7 µM
O=C(O)P(=O)(O)O	Towne (ganciclovir- foscarnet-susceptible)	plaque count	EC75	MRC-5		191 µM
COc1cccc(N2CCN(C3=Nc4c(F)cccc4[C@H](CC(=O)O)N3c3cc(C(F)(F)F)ccc3OC)CC2)c1	Clinical isolate 4	plaque count	EC50			0.002 µM
O=C(NCc1ccc(Cl)cc1)c1c[nH]c2c(F)cccc2c1=O	GDGrP53	plaque count	EC90			26 µM
Nc1nc2c(ncn2COCCO)c(=O)[nH]1		plaque count	inhibition	HEL	75 µM	84%
Nc1nc2c(ncn2[C@@H]2C[C@H](CO)[C@H]2CO)c(=O)[nH]1.O=C(O)P(=O)(O)O	PAAR	plaque count	EC75	MRC-5		0.93 µM
O=C(NCc1ccc(Cl)cc1)c1c[nH]c2ccc(C#CCO)cc2c1=O	759rD100	plaque count	EC90			1.8 µM
Nc1ccn(C[C@@H](CO)OCP(=O)(O)O)c(=O)n1.O=C(O)P(=O)(O)O	AD169 (ganciclovir foscarnet-susceptible)	plaque count	EC75	MRC-5		0.94 µM
O=C(NCc1ccc(Cl)cc1)c1c[nH]c2c(F)cccc2c1=O	DAVIS	plaque count	EC50			6.7 µM
OC[C@H]1O[C@@H](n2c(Br)nc3cc(Cl)c(Cl)cc32)[C@H](O)[C@@H]1O	8702REC2 (ALA594VAL)	hybridisation	EC50	MRC-5		0.75 µM
Nc1ccn([C@@H]2O[C@H](CO)[C@@H](O)[C@@H]2O)c(=O)n1		plaque count	inhibition	HEL	0.01 µM	28.3%
Nc1nc2c(ncn2C=C2CC2CO)c(=O)[nH]1	VR6200 (ganciclovir-susceptible)	plaque count	EC90			4.8 µM
Nc1nc2c(ncn2[C@@H]2C[C@H](CO)[C@H]2CO)c(=O)[nH]1	Towne (ganciclovir- foscarnet-susceptible)	plaque count	EC75	MRC-5		10.97 µM

A second listing of 2 rows from above:

smiles,strain,method,measure,cell line,dose,result
Nc1nc2c(ncn2[C@@H]2C[C@H](CO)[C@H]2CO)c(=O)[nH]1,Towne (ganciclovir- foscarnet-susceptible),plaque count,EC75,MRC-5,,10.97 µM
Nc1ccn(C[C@@H](CO)OCP(=O)(O)O)c(=O)n1.O=C(O)P(=O)(O)O,AD169 (ganciclovir foscarnet-susceptible),plaque count,EC75,MRC-5,,0.94 µM

Rows are shuffled and stem from different studies. ECn is the concentration giving n% inhibition of infection, replication or growth. Inhibition is in % at the dose shown (toxicity tests: loss of growth or viability).